From patent US4777143A, “Method of detecting carboxylic acids in a specimen” (priority 1986, dated 1988) come the findings set out here.

Data set [1] in a line: Substrate specificity: color formation with various compounds.
Data set [2] is described as follows: Solvent extraction of FFA-copper salts, guaiac detection.
Data set [3] can be described thus: Detection of alternative carboxylic acids: color intensity of eluted copper complex. Conditions: acid 100 mM pH 7.
The mark [4] stands for this setting: 1,1,1-TCE, .5% G/.4% CHP, Neat guaiac, sample concentrations as E159.
The mark [5] stands for this setting: 1,1,1-TCE, .5% G/.4% CHP, Pure guaiac, sample concentrations as E159.
The mark [6] stands for this setting: TOL/HEX, .5% G/.2% CHP, Neat guaiac, sample concentrations as E159.
The mark [7] stands for this setting: TOL/HEX, .5% G/.2% CHP, Pure guaiac, sample concentrations as E159.
Where [8] appears, read: hexanol, .5% G/.002% CHP, Neat guaiac, sample concentrations as E159.
Where [9] appears, read: hexanol, .5% G/.002% CHP, Pure guaiac, sample concentrations as E159.
Where [10] appears, read: hexanol, .5% G/.02% CHP, Neat guaiac, sample concentrations as E159.
Setting [11] is: hexanol, .5% G/.02% CHP, Pure guaiac, sample concentrations as E159.
Where [12] appears, read: toluene, 2% G/.5% CHP, Neat guaiac, sample 0.1 M (acetoacetate .04, 1-keto glutarate .05, lysine/glutamate/leucine .01, uric acid .005 M).
The mark [13] stands for this setting: toluene, 2% G/.5% CHP, Neat guaiac, sample concentrations as E159.
[14] abbreviates: toluene, 2% G/.5% CHP, Pure guaiac, sample concentrations as E159.

Turning to `O=c1[nH]c(=O)c2[nH]c(=O)[nH]c2[nH]1` [Uric Acid], the “COLOR INTENSITY SCORES AT 2 MINUTES” value in data set [1] (setting [4]) was determined as 2; in data set [1] (setting [5]), 4; in data set [1] (setting [6]) it was 2; in data set [1] (setting [7]), 2; in data set [1] (setting [10]), 0; in data set [1] (setting [11]) it was 0. Moreover, the “COLOR INTENSITY SCORES AT 2 MINUTES” value in data set [1] (setting [12]) was found to be 0; in data set [1] (setting [14]), 2. The “COLOR INTENSITY SCORES AT 15 MINUTES” value in data set [1] (setting [4]) was found to be 5; in data set [1] (setting [5]), 6; in data set [1] (setting [6]), 4; in data set [1] (setting [7]), 5; in data set [1] (setting [8]), 2; in data set [1] (setting [9]), 1. Further, the “COLOR INTENSITY SCORES AT 15 MINUTES” value in data set [1] (setting [13]) is 2; in data set [1] (setting [14]) it was 3.
For the molecule `O=C[C@H](O)[C@@H](O)[C@H](O)[C@H](O)CO` [Glucose], the “COLOR INTENSITY SCORES AT 2 MINUTES” value in data set [1] (setting [4]) was 1; in data set [1] (setting [5]) it was 1; in data set [1] (setting [6]), 0; in data set [1] (setting [7]) it was 0; in data set [1] (setting [10]) it was 0; in data set [1] (setting [11]) it was 0. The “COLOR INTENSITY SCORES AT 2 MINUTES” value in data set [1] (setting [12]) and in data set [1] (setting [14]) was 0 in each case. Besides, the “COLOR INTENSITY SCORES AT 15 MINUTES” value in data set [1] (setting [4]) turned out to be 2; in data set [1] (setting [5]), 2; in data set [1] (setting [6]), 1; in data set [1] (setting [7]) it was 2; in data set [1] (setting [8]) it was 0; in data set [1] (setting [9]), 0. The “COLOR INTENSITY SCORES AT 15 MINUTES” value in data set [1] (setting [13]) amounted to 0; in data set [1] (setting [14]) it was 1.
As for `CC(O)C(=O)O` (stereo not shown) [Lactate, Lactic Acid], the “COLOR INTENSITY SCORES AT 2 MINUTES” value in data set [1] (setting [4]) is reported as 2; in data set [1] (setting [5]) it was 3; in data set [1] (setting [6]), 2; in data set [1] (setting [7]), 0; in data set [1] (setting [10]), 1; in data set [1] (setting [11]) it was 0. Further, the “COLOR INTENSITY SCORES AT 2 MINUTES” value is listed as 0 in data set [1] (setting [12]) and 2 in data set [1] (setting [14]). Also, the “COLOR INTENSITY SCORES AT 15 MINUTES” value in data set [1] (setting [4]) was determined as 4; in data set [1] (setting [5]) it was 5; in data set [1] (setting [6]) it was 4; in data set [1] (setting [7]), 4; in data set [1] (setting [8]) it was 1; in data set [1] (setting [9]) it was 0. The results for the “COLOR INTENSITY SCORES AT 15 MINUTES” value in data set [1] (setting [13]) and in data set [1] (setting [14]) were 2 and 4, respectively.
For the molecule `O=C(O)CC(=O)O` [Malonate], the “COLOR INTENSITY SCORES AT 2 MINUTES” value in data set [1] (setting [4]), in data set [1] (setting [5]), in data set [1] (setting [6]), in data set [1] (setting [7]), in data set [1] (setting [10]) and in data set [1] (setting [11]) was 0 in each case. The “COLOR INTENSITY SCORES AT 2 MINUTES” value in data set [1] (setting [12]) and in data set [1] (setting [14]) was 0 throughout. The “COLOR INTENSITY SCORES AT 15 MINUTES” value in data set [1] (setting [4]), in data set [1] (setting [5]), in data set [1] (setting [6]), in data set [1] (setting [7]), in data set [1] (setting [8]) and in data set [1] (setting [9]) was 0 in each case. The “COLOR INTENSITY SCORES AT 15 MINUTES” value in data set [1] (setting [13]) and in data set [1] (setting [14]) was 0 in each case.
`NC(N)=O` [Urea]: the “COLOR INTENSITY SCORES AT 2 MINUTES” value in data set [1] (setting [4]) is 4; in data set [1] (setting [5]) it was 8; in data set [1] (setting [6]) it was 2; in data set [1] (setting [7]), 2; in data set [1] (setting [10]) it was 1; in data set [1] (setting [11]) it was 1. The “COLOR INTENSITY SCORES AT 2 MINUTES” value is 0 in data set [1] (setting [12]) and 2 in data set [1] (setting [14]). In addition, the “COLOR INTENSITY SCORES AT 15 MINUTES” value in data set [1] (setting [4]) was determined as 6; in data set [1] (setting [5]), 8; in data set [1] (setting [6]), 5; in data set [1] (setting [7]), 5; in data set [1] (setting [8]) it was 4; in data set [1] (setting [9]) it was 2. Besides, the “COLOR INTENSITY SCORES AT 15 MINUTES” value in data set [1] (setting [13]) and in data set [1] (setting [14]) was 2 throughout.
As to `CCCCCCO` [n-Hexanol], in data set [2] (100 mM NaCl instead of fatty acid), the “Color development after extraction, NaCl” value amounted to 1. Also, the “Color development after extraction, C1” value in data set [2] (fatty acid C1, 100 mM) came to 3. Moreover, the “Color development after extraction, C2” value in data set [2] (fatty acid C2, 100 mM) is 2. In addition, the “Color development after extraction, C3” value in data set [2] (fatty acid C3, 100 mM) came out at 3. Also, the “Color development after extraction, C5” value in data set [2] (fatty acid C5, 100 mM) amounted to 6. Moreover, in data set [2] (fatty acid C6, 100 mM), the “Color development after extraction, C6” value is on record as 4. Besides, in data set [2] (fatty acid C8, 100 mM), the “Color development after extraction, C8” value is listed as 3. In addition, the “Color development after extraction, C10” value in data set [2] (fatty acid C10, 100 mM) turned out to be 5. The “Color development after extraction, C12” value in data set [2] (fatty acid C12, 100 mM) is 7. The “Color development after extraction, C16” value in data set [2] (fatty acid C16, 100 mM) is 0. In data set [2] (fatty acid Me--C6, 100 mM), the “Color development after extraction, Me--C6” value was determined as 4. Further, the “Color development after extraction, iC4” value in data set [2] (fatty acid iC4, 100 mM) was found to be 4. Also, the “Color development after extraction, Succinate” value in data set [2] (succinate, 100 mM) amounted to 2.
For `O=C(O)CC(O)C(=O)O` (stereo not shown) [Malate], the “COLOR INTENSITY SCORES AT 2 MINUTES” value in data set [1] (setting [4]), in data set [1] (setting [5]), in data set [1] (setting [6]), in data set [1] (setting [7]), in data set [1] (setting [10]) and in data set [1] (setting [11]) was 0 throughout. The “COLOR INTENSITY SCORES AT 2 MINUTES” value in data set [1] (setting [12]) and in data set [1] (setting [14]) was 0 in each case. Moreover, the “COLOR INTENSITY SCORES AT 15 MINUTES” value in data set [1] (setting [4]) came out at 1; in data set [1] (setting [5]), 1; in data set [1] (setting [6]) it was 0; in data set [1] (setting [7]), 1; in data set [1] (setting [8]), 0; in data set [1] (setting [9]), 0. Moreover, the “COLOR INTENSITY SCORES AT 15 MINUTES” value in data set [1] (setting [13]) and in data set [1] (setting [14]) was 0 in each case.
On to `O=C1CC[C@@H](C(=O)O)N1` [L-Pyroglutamic], for which the “Color Intensity of Eluted Complex” value in data set [3] (copper 5 mM) is 0; in data set [3] (copper 10 mM), 0; in data set [3] (copper 20 mM), 1; in data set [3] (copper 50 mM) it was 1.
With `O=C(O)C(=O)O` [Oxalate], the “COLOR INTENSITY SCORES AT 2 MINUTES” value in data set [1] (setting [4]), in data set [1] (setting [5]), in data set [1] (setting [6]), in data set [1] (setting [7]), in data set [1] (setting [10]) and in data set [1] (setting [11]) was 0 throughout. Also, the “COLOR INTENSITY SCORES AT 2 MINUTES” value in data set [1] (setting [12]) and in data set [1] (setting [14]) was 0 throughout. Also, the “COLOR INTENSITY SCORES AT 15 MINUTES” value in data set [1] (setting [4]), in data set [1] (setting [5]), in data set [1] (setting [6]), in data set [1] (setting [7]), in data set [1] (setting [8]) and in data set [1] (setting [9]) was 0 throughout. The “COLOR INTENSITY SCORES AT 15 MINUTES” value in data set [1] (setting [13]) and in data set [1] (setting [14]) was 0 throughout.
As to `Nc1ccc(S(=O)(=O)O)cc1` [Sulfanilic], the “Color Intensity of Eluted Complex” value in data set [3] (copper 5 mM) was found to be 0; in data set [3] (copper 10 mM), 0; in data set [3] (copper 20 mM) it was 1; in data set [3] (copper 50 mM), 2.
In the case of `NCC(=O)O` [Glycine], the “COLOR INTENSITY SCORES AT 2 MINUTES” value in data set [1] (setting [4]), in data set [1] (setting [5]), in data set [1] (setting [6]), in data set [1] (setting [7]), in data set [1] (setting [10]) and in data set [1] (setting [11]) was 0 each time. In addition, the “COLOR INTENSITY SCORES AT 2 MINUTES” value in data set [1] (setting [14]) is given as 0. Besides, the “COLOR INTENSITY SCORES AT 15 MINUTES” value in data set [1] (setting [4]), in data set [1] (setting [5]), in data set [1] (setting [6]), in data set [1] (setting [7]), in data set [1] (setting [8]) and in data set [1] (setting [9]) was 0 each time. Besides, the “COLOR INTENSITY SCORES AT 15 MINUTES” value in data set [1] (setting [13]) and in data set [1] (setting [14]) was 0 throughout.
